Test: xn = mol fraction of the nth substance listed

CC[n+]1ccn(C)c1.O=S(=O)(F)[N-]S(=O)(=O)F + O
100 kPa
Settings | electrical conductivity [S/m] | viscosity [mPa·s]
288.15 K, x1 = 0.8207 | 1.68 | –
288.15 K, x1 = 0.8466 | – | 19.35
288.15 K, x1 = 0.8994 | 1.47 | –
293.15 K, x1 = 0.7211 | 2.21 | –
293.15 K, x1 = 0.9748 | 1.51 | –
298.15 K, x1 = 0.8207 | 2.19 | –
298.15 K, x1 = 0.8466 | – | 14.56
298.15 K, x1 = 0.8663 | 2.02 | –
298.15 K, x1 = 0.9111 | – | 16.42
303.15 K, x1 = 0.771 | 2.62 | –
303.15 K, x1 = 0.8466 | – | 12.8
303.15 K, x1 = 0.8994 | 2.19 | –
303.15 K, x1 = 0.9111 | – | 14.38
308.15 K, x1 = 0.7211 | 3.13 | –
308.15 K, x1 = 0.771 | 2.92 | –
308.15 K, x1 = 0.7797 | – | 10.04
308.15 K, x1 = 0.8663 | 2.56 | –
313.15 K, x1 = 0.7797 | – | 8.99
313.15 K, x1 = 0.8207 | 3.05 | –
313.15 K, x1 = 0.8466 | – | 10.13
318.15 K, x1 = 0.8207 | 3.36 | –
318.15 K, x1 = 0.9693 | – | 11.09
323.15 K, x1 = 0.8796 | – | 8.65
323.15 K, x1 = 0.8994 | 3.33 | –
323.15 K, x1 = 0.9111 | – | 9.11
328.15 K, x1 = 0.9349 | 3.52 | –
333.15 K, x1 = 0.7211 | 4.87 | –
333.15 K, x1 = 0.8663 | 4.13 | –
333.15 K, x1 = 0.8796 | – | 7.15
333.15 K, x1 = 0.9111 | – | 7.52
333.15 K, x1 = 0.9748 | 3.69 | –

CCCC[n+]1ccccc1.O=S(=O)(F)[N-]S(=O)(=O)F + CCCC[n+]1ccccc1.F[B-](F)(F)F
101.3 kPa
Settings | viscosity [mPa·s]
283.15 K, x1 = 0.2 | 275
283.15 K, x1 = 0.4 | 180
293.15 K, x1 = 0.2 | 146
298.15 K, x1 = 0.6 | 61
298.15 K, x1 = 0.8 | 47.8
298.15 K, x1 = 1 | 40
303.15 K, x1 = 0.6 | 50
303.15 K, x1 = 1 | 33.3
308.15 K, x1 = 0.2 | 68
313.15 K, x1 = 0.2 | 54
318.15 K, x1 = 0.2 | 44.1
318.15 K, x1 = 0.4 | 35
338.15 K, x1 = 0.2 | 22
338.15 K, x1 = 0.6 | 16
343.15 K, x1 = 0.2 | 19
343.15 K, x1 = 0.8 | 12.3
348.15 K, x1 = 0.2 | 16.6

CC[n+]1ccn(C)c1.O=S(=O)(F)[N-]S(=O)(=O)F + O=S(=O)(F)[N-]S(=O)(=O)F.[Li+]
100 kPa, x2 = 0
Settings | electrical conductivity [S/m] | viscosity [mPa·s]
278 K | 0.86 | 38.3
308 K | 2.07 | 14.4
338 K | 3.75 | 7.2

CCCC[n+]1ccccc1.F[B-](F)(F)F + CCCC[n+]1ccccc1.O=S(=O)(F)[N-]S(=O)(=O)F
101.3 kPa, x2 = 0
Settings | viscosity [mPa·s]
308.15 K | 93
338.15 K | 26.5

CC[n+]1ccn(C)c1.O=S(=O)(F)[N-]S(=O)(=O)F + O=S(=O)(F)[N-]S(=O)(=O)F.[K+]
101 kPa
Settings | electrical conductivity [S/m] | viscosity [mPa·s]
273 K, x2 = 0 | 0.73 | 45.9
288 K, x2 = 0.2 | 0.706 | 57.4
298 K, x2 = 0.1 | 1.33 | 26.6
303 K, x2 = 0 | 1.86 | 16.7
308 K, x2 = 0 | 2.1 | 14.6
318 K, x2 = 0.2 | 1.81 | 20.6
323 K, x2 = 0.2 | 2.04 | 18.1
328 K, x2 = 0 | 3.18 | 9.11
333 K, x2 = 0 | 3.48 | 8.22
333 K, x2 = 0.1 | 3.04 | 10.4
348 K, x2 = 0.1 | 3.94 | 7.61
358 K, x2 = 0.1 | 4.61 | 6.39
368 K, x2 = 0.2 | 4.74 | 6.75

Source: the CheMixHub ionic liquid set
